Compound potency records, mixed from different reports. Data source: NIAID ChemDB in PubChem.

Shared fields: tests in culture; agent: Mycobacterium avium complex; measure: MIC50

MIC50, MIC90 and the like: level of inhibition, or share of isolates inhibited.

N[C@@H]1CN(c2c(F)cc3c(=O)c(C(=O)O)cn([C@@H]4C[C@@H]4F)c3c2Cl)CC12CC2 ; strain: 18 strains ; value: 1.56 µg/mL
CC[C@H]1OC(=O)[C@H](C)[C@@H](O[C@H]2C[C@@](C)(OC)[C@@H](O)[C@H](C)O2)[C@H](C)[C@@H](O[C@@H]2O[C@H](C)C[C@H](N(C)C)[C@H]2O)[C@](C)(O)C[C@@H](C)/C(=N\OCOCCOC)[C@H](C)[C@@H](O)[C@]1(C)O ; strain: 28 strains ; value: 16 µg/mL
O=C(O)c1cn(C2CCCCC2)c2cc(NC3CCCCC3)c([N+](=O)[O-])cc2c1=O ; value: >200 µM
NC[C@H]1O[C@H](O[C@H]2[C@H](O)[C@@H](O[C@H]3O[C@H](CO)[C@@H](O)[C@H](N)[C@H]3O)[C@H](N)C[C@@H]2N)[C@H](O)[C@@H](O)[C@@H]1O ; strain: 25 isolates ; value: 8 µg/mL
CCCC(C)Nc1cc2c(cc1[N+](=O)[O-])c(=O)c(C(=O)O)cn2C(C)CCC ; value: >200 µM
CO[C@H]1/C=C/O[C@@]2(C)Oc3c(C)c(O)c4c(O)c(c5c(c4c3C2=O)NC2(CCN(CC(C)C)CC2)N=5)=NC(=O)/C(C)=C\C=C\[C@H](C)[C@H](O)[C@@H](C)[C@@H](O)[C@@H](C)[C@H](OC(C)=O)[C@@H]1C ; strain: 211 strains ; value: 0.75 µg/mL
CN1CCN(CCCN=c2cc3n(-c4ccc(Cl)cc4)c4ccccc4nc-3cc2Nc2ccccc2)CC1 ; strain: 10 strains (HIV+) ; value: 1.7 µg/mL
CC[C@H]1OC(=O)C[C@@H](O)[C@H](C)[C@@H](O[C@@H]2O[C@H](C)[C@H](O[C@H]3C[C@@](C)(O)[C@@H](O)[C@H](C)O3)[C@H](N(C)C)[C@H]2O)[C@@H](CCOc2ccccc2)C[C@@H](C)C(=O)/C=C/C(C)=C/[C@@H]1COC1O[C@H](C)[C@@H](O)[C@@H](OC)[C@H]1OC ; strain: 28 strains ; value: ≥64 µg/mL
O=C(O)c1cn(C2CC2)c2c(Cl)c(N3C[C@@H]4CCCN[C@@H]4C3)c(F)cc2c1=O ; strain: 101 ; value: 0.25 µg/mL
C[C@@H]1CN(c2c(F)c(N)c3c(=O)c(C(=O)O)cn(C4CC4)c3c2F)C[C@H](C)N1 ; strain: 25 isolates ; value: 4 µg/mL
CO[C@H]1/C=C/O[C@@]2(C)Oc3c(C)c(O)c4c(O)c(c(N5CCN(Cc6c(C)cc(C)cc6C)CC5)c(O)c4c3C2=O)NC(=O)/C(C)=C\C=C\[C@H](C)[C@H](O)[C@@H](C)[C@@H](O)[C@@H](C)[C@H](OC(C)=O)[C@@H]1C ; strain: 67 strains (HIV+) ; value: 0.25 µg/mL
CC[C@H]1OC(=O)[C@H](C)[C@@H](O[C@H]2C[C@@](C)(OC)[C@@H](O)[C@H](C)O2)[C@H](C)[C@@H](O[C@@H]2O[C@H](C)C[C@H](N(C)C)[C@H]2O)[C@](C)(OC)C[C@@H](C)C(=O)[C@H](C)[C@@H](O)[C@]1(C)O ; strain: 20 strains ; value: 2 µg/mL
O[C@@H](c1cc2ccc(C(F)(F)F)cc2c2cc(C(F)(F)F)ccc12)[C@H]1CCCCN1 ; strain: 24 clinical isolates ; value: 4 µg/mL
COc1cccc2c1nc1cccc(OC)c1[n+]2[O-] ; strain: 5 strains ; value: 8 µg/mL
Cc1c(F)c(N2CCNC(C)C2)cc2c1c(=O)c(C(=O)O)cn2C1CC1 ; strain: 41 clinical isolates ; value: 4 µg/mL
CC(C)(C)n1cc(C(=O)O)c(=O)c2cc([N+](=O)[O-])c(N3CCOCC3)cc21 ; value: 13.5 µM
C[C@@H]1CN(c2c(F)c(N)c3c(=O)c(C(=O)O)cn(C4CC4)c3c2F)C[C@H](C)N1 ; strain: 18 strains ; value: 1.56 µg/mL
C[C@H]1C[C@H](N)CN1c1cc2c(cc1F)c(=O)c(C(=O)O)cn2-c1ccc(F)cc1F ; strain: 25 isolates ; value: >8 µg/mL
O=C(N1CCC(CN=c2cc3n(-c4ccc(Cl)cc4)c4ccccc4nc-3cc2Nc2ccc(Cl)cc2)CC1)N1CC1 ; strain: 5 strains ; value: 2 µg/mL
O=C(O)c1cn(CCF)c2cc(NCCF)c([N+](=O)[O-])cc2c1=O ; value: 26 µM
CC1CN(c2cc3c(cc2F)c(=O)c(C(=O)O)cn3-c2ccc(F)cc2F)CCN1 ; strain: 25 isolates ; value: 8 µg/mL
CCCN(CCC)CC[C@H]1C[C@@H](C)C(=O)/C=C/C(C)=C/[C@H](COC2O[C@H](C)[C@@H](O)[C@@H](OC)[C@H]2OC)[C@@H](CC)OC(=O)C[C@@H](O)[C@H](C)[C@H]1O[C@@H]1O[C@H](C)[C@H](O)[C@H](N(C)C)[C@H]1O ; strain: 28 strains ; value: ≥64 µg/mL
CN1CCN(c2c(F)cc3c(=O)c(C(=O)O)cn(CCF)c3c2F)CC1 ; value: 12.5 µg/mL
CN[C@@H]1[C@H](O[C@H]2[C@H](O[C@H]3[C@H](O)[C@@H](O)[C@H](N=C(N)N)[C@@H](O)[C@@H]3N=C(N)N)O[C@@H](C)[C@]2(O)C=O)O[C@@H](CO)[C@H](O)[C@H]1O ; strain: 25 isolates ; value: 16 µg/mL
C=C(C)CC[C@H]1CN(c2ccn(N3CCOCC3)c2)C(=O)O1 ; value: >100 µM
CC[C@H]1OC(=O)C[C@@H](O)[C@H](C)[C@@H](O[C@@H]2O[C@H](C)[C@H](O[C@H]3C[C@@](C)(O)[C@@H](O)[C@H](C)O3)[C@H](N(C)C)[C@H]2O)[C@@H](CC=O)C[C@@H](C)C(=O)/C=C/C(C)=C/[C@@H]1CO ; strain: 28 strains ; value: 16 µg/mL
CN1CCCC1CCN=c1cc2n(-c3ccc(Cl)cc3)c3ccccc3nc-2cc1Nc1ccccc1 ; strain: 10 strains (HIV+) ; value: 1.6 µg/mL
CO[C@H]1/C=C/O[C@@]2(C)Oc3c(C)c(O)c4c(=O)c(c5oc6cc(N7CCN(CC(C)C)CC7)cc(=O)c6nc5c4c3=C2O)NC(=O)/C(C)=C\C=C\[C@H](C)[C@H](O)[C@@H](C)[C@@H](O)[C@@H](C)[C@H](OC(C)=O)[C@@H]1C ; value: 0.12 µg/mL
CC(=O)NC[C@H]1CN(c2ccc(N3CCN(Cc4ccc([N+](=O)[O-])s4)CC3)c(F)c2)C(=O)O1 ; strain: 31 isolates ; value: 0.25 µg/mL
C=Cn1cc(C(=O)O)c(=O)c2cc([N+](=O)[O-])c(NCCF)cc21 ; value: >200 µM
CCn1cc(C(=O)O)c(=O)c2cc(F)c(N3CCN(C)CC3)cc21 ; strain: 89 isolates ; value: >16 µg/mL
CC(C)Nc1cc2c(cc1[N+](=O)[O-])c(=O)c(C(=O)O)cn2C(C)C ; value: >200 µM
O=C(NCCCl)N1CCC(CN=c2cc3n(-c4ccc(Cl)cc4)c4ccccc4nc-3cc2Nc2ccc(Cl)cc2)CC1 ; strain: 5 strains ; value: 1 µg/mL
CC[C@H]1OC(=O)[C@H](C)C(=O)[C@H](C)[C@@H](O[C@@H]2O[C@H](C)C[C@H](N(C)C)[C@H]2O)[C@](C)(OC)C[C@@H](C)C(=O)[C@H](C)[C@H]2N(CCCCc3ccccc3)C(=O)O[C@]12C ; strain: 24 strains (HIV+) ; value: 9 µg/mL
C[C@H]1COc2c(N3CCN(C)CC3)c(F)cc3c(=O)c(C(=O)O)cn1c23 ; strain: 25 isolates ; value: 8 µg/mL
O[C@H](c1cc2ccc(C(F)(F)F)cc2c2cc(C(F)(F)F)ccc12)[C@H]1CCCCN1 ; strain: 24 clinical isolates ; value: 4 µg/mL
NC[C@H]1O[C@H](O[C@H]2[C@H](O)[C@@H](O[C@H]3O[C@H](CO)[C@@H](O)[C@H](N)[C@H]3O)[C@H](N)C[C@@H]2N)[C@H](N)C[C@@H]1O ; strain: 25 isolates ; value: 16 µg/mL
CC[C@H]1OC(=O)[C@H](C)[C@@H](O[C@H]2C[C@@](C)(OC)[C@@H](O)[C@H](C)O2)[C@H](C)[C@@H](O[C@@H]2O[C@H](C)C[C@H](N(C)C)[C@H]2O)[C@](C)(O)C[C@@H](C)C(=O)[C@H](C)[C@@H](O)[C@]1(C)O ; strain: 25 isolates ; value: >8 µg/mL

The first 5 rows once more:

SMILES,strain,value
N[C@@H]1CN(c2c(F)cc3c(=O)c(C(=O)O)cn([C@@H]4C[C@@H]4F)c3c2Cl)CC12CC2,18 strains,1.56 µg/mL
CC[C@H]1OC(=O)[C@H](C)[C@@H](O[C@H]2C[C@@](C)(OC)[C@@H](O)[C@H](C)O2)[C@H](C)[C@@H](O[C@@H]2O[C@H](C)C[C@H](N(C)C)[C@H]2O)[C@](C)(O)C[C@@H](C)/C(=N\OCOCCOC)[C@H](C)[C@@H](O)[C@]1(C)O,28 strains,16 µg/mL
O=C(O)c1cn(C2CCCCC2)c2cc(NC3CCCCC3)c([N+](=O)[O-])cc2c1=O,-,>200 µM
NC[C@H]1O[C@H](O[C@H]2[C@H](O)[C@@H](O[C@H]3O[C@H](CO)[C@@H](O)[C@H](N)[C@H]3O)[C@H](N)C[C@@H]2N)[C@H](O)[C@@H](O)[C@@H]1O,25 isolates,8 µg/mL
CCCC(C)Nc1cc2c(cc1[N+](=O)[O-])c(=O)c(C(=O)O)cn2C(C)CCC,-,>200 µM

Neighbouring rows are from separate reports. Blank or dashed fields: not listed here.